A mixed list of measured activities; the numbers were collected in NIAID ChemDB.

Common to all: whole-cell or culture tests; species: Mycobacterium kansasii

Conditions beyond the fields shown may differ between rows. MIC50, MIC90 and the like: level of inhibition, or share of isolates inhibited. An empty or dashed field is not shown.

structure	strain	read by	read-out	setting	value
O=C(Oc1ccc(Br)cc1C(=O)Nc1ccc(C(F)(F)F)cc1)c1cnccn1	235/80	-	MIC	7 d	2 µM
O=C(NNC(=O)c1ccncc1)Nc1ccc(Cl)c(Cl)c1	My 6509/96	broth dilution	MIC100	14 d	125 µM
NC(=O)c1cnccn1	6509/96	-	MIC	14 d	1000 µM
Cc1ccc(NC(=O)NNC(=O)c2ccncc2)cc1	My 235/80	broth dilution	MIC100	14 d	125 µM
O=C(Oc1cc(Cl)ccc1C(=O)Nc1ccc(F)cc1)c1cnccn1	235/80	-	MIC	21 d	4 µM
Cc1ccc2oc(=S)n(-c3cccc(Cl)c3)c(=S)c2c1	My 235/80	-	MIC	21 d	2 µM
O=C(Oc1ccc(Cl)cc1C(=O)Nc1ccc(F)cc1)c1cnccn1	235/80	-	MIC	7 d	4 µM
COc1ccc2oc(=S)n(-c3ccc(Br)cc3)c(=S)c2c1	My 235/80	-	MIC	21 d	32 µM
O=C(Nc1ccc(Cl)cc1)c1ccc(Cl)cc1OS(=O)(=O)c1ccccc1	6509/96	-	MIC	14 d	16 µM
O=C(Oc1cc(Cl)ccc1C(=O)Nc1ccc(Br)cc1)c1cnccn1	235/80	-	MIC	14 d	4 µM
O=C(Nc1cccc(C(F)(F)F)c1)c1ccc(Cl)cc1OS(=O)(=O)c1ccccc1	235/80	-	MIC	14 d	125 µM
O=C(Oc1ccc(Cl)cc1C(=O)Nc1ccc(Cl)c(Cl)c1)c1cnccn1	6509/96	-	MIC	21 d	2 µM
O=C(NNC(=O)c1ccncc1)Nc1ccc(C(F)(F)F)cc1	My 6509/96	broth dilution	MIC100	21 d	125 µM
Cc1ccc2oc(=S)n(-c3ccc(Cl)cc3)c(=S)c2c1	My 235/80	-	MIC	21 d	4 µM
O=C(NNC(=O)c1ccncc1)Nc1ccc(Cl)c(C(F)(F)F)c1	My 6509/96	broth dilution	MIC100	7 d	62.5 µM
O=C(Nc1cccc(Br)c1)c1cc(Cl)ccc1OS(=O)(=O)c1ccccc1	235/80	-	MIC	7 d	16 µM
O=C(Oc1cc(Cl)ccc1C(=O)Nc1ccc(Cl)cc1)c1cnccn1	235/80	-	MIC	21 d	4 µM
COc1ccc2oc(=S)n(-c3ccc(Cl)cc3)c(=S)c2c1	6509/96	-	MIC	21 d	32 µM
Clc1ccc(Nc2nnc(-c3ccncc3)o2)cc1Cl	My 235/80	broth dilution	MIC100	14 d	>125 µM
Cc1ccc2oc(=S)n(-c3ccc(Cl)c(Cl)c3)c(=S)c2c1	6509/96	-	MIC	14 d	8 µM
O=C(NNC(=O)c1ccncc1)Nc1ccc(Br)cc1Br	My 6509/96	broth dilution	MIC100	7 d	>125 µM
Cc1ccc2oc(=O)n(-c3ccc(Br)cc3)c(=S)c2c1	6509/96	-	MIC	14 d	4 µM
O=C(Nc1ccc(Cl)cc1)c1cc(Cl)ccc1OS(=O)(=O)c1ccccc1	235/80	-	MIC	21 d	8 µM
O=c1oc2ccc(F)cc2c(=S)n1-c1cccc(F)c1	6509/96	-	MIC	21 d	16 µM
CCCCCCCCc1ccc(NC(=O)NNC(=O)c2ccncc2)cc1	My 6509/96	broth dilution	MIC100	21 d	500 µM
COc1ccc2oc(=O)n(-c3cccc(F)c3)c(=S)c2c1	My 235/80	-	MIC	14 d	32 µM
O=C(Nc1ccc(Cl)c(Cl)c1)c1cc(Cl)ccc1OS(=O)(=O)c1ccccc1	235/80	-	MIC	21 d	8 µM

The last 3 rows once more:

structure | strain | read by | read-out | setting | value
CCCCCCCCc1ccc(NC(=O)NNC(=O)c2ccncc2)cc1 | My 6509/96 | broth dilution | MIC100 | 21 d | 500 µM
COc1ccc2oc(=O)n(-c3cccc(F)c3)c(=S)c2c1 | My 235/80 | - | MIC | 14 d | 32 µM
O=C(Nc1ccc(Cl)c(Cl)c1)c1cc(Cl)ccc1OS(=O)(=O)c1ccccc1 | 235/80 | - | MIC | 21 d | 8 µM